Measurements taken from patent US8642317B2 (priority 2007, dated 2014).

System: bacterial isolate 180507-1 (IDAC)
Assay: Degradation of trichothecenes other than DON by the selected isolate

Compound	degradation by the selected isolate (deepoxidation and/or deacylation)
CC1=C[C@H]2O[C@@H]3C[C@@H](O)[C@](C)([C@@]2(CO)CC1)[C@]31CO1	degraded
T2 toxin	degraded
